Data: patent US20140377289A1, “Metallodrugs Having Improved Pharmacological Properties, and Methods of Manufacture and Use Thereof” (MetalloPharm, LLC, priority 2011, published 2014)

Tested on: HCV RNA replicon in ET (luc-ubi-neo/ET) Huh7 cells
Settings: TC50/IC50

| Molecule | selectivity index SI50 | selectivity index SI50 (listed as Cu-GGHYrFK-NH2) |
| --- | --- | --- |
| Cu-GGHYrFKGGGYGRKKRRQRRR | 62 | – |
| Cu-GGHGYrFKGGGYGRKKRRQRRR | 101 | – |
| CC[C@H](C)[C@H](NC(=O)[C@H](CC(C)C)NC(=O)[C@H](CC(C)C)NC(=O)[C@H](CC(=O)O)NC(=O)[C@@H](NC(=O)[C@H](CCC(=O)O)NC(=O)[C@H](CCCCN)NC(=O)[C@H](Cc1ccc(O)cc1)NC(=O)[C@@H](N)CCCCN)[C@@H](C)O)C(=O)N[C@@H](CC(C)C)C(=O)N[C@@H](Cc1ccccc1)C(=O)N[C@@H](CCCCN)C(=O)N[C@@H](CC(=O)O)C(=O)N[C@@H](CC(=O)O)C(=O)N[C@@H](Cc1ccc(O)cc1)C(=O)N[C@@H](Cc1ccccc1)C(=O)N[C@@H](C)C(=O)N[C@@H](CCCCN)C(=O)N[C@@H](CCCCN)C(=O)N[C@@H](CC(N)=O)C(=O)N[C@@H](CCC(=O)O)C(=O)N[C@@H](CCC(=O)O)C(=O)N[C@@H](CCCNC(=N)N)C(=O)N[C@@H](CCCCN)C(N)=O [reference compound] (H-KYKETDLLILFKDDYFAKKNEERK-NH2) | 1 | – |
| Cu-GGHGYrFKGGGKDEL | >110 | – |
| Cu-GGHAALEAKICHQIEYYFGDF | 12 | – |
| Cu-GGHGKYKETDLLILFKDDYFAKKNEERKKDEL | >67 | – |
| CC[C@H](C)[C@H](NC(=O)[C@H](CCCCN)NC(=O)[C@H](C)NC(=O)[C@H](CCC(=O)O)NC(=O)[C@H](CC(C)C)NC(=O)[C@H](C)NC(=O)[C@H](C)N)C(=O)N[C@@H](CS)C(=O)N[C@@H](Cc1c[nH]cn1)C(=O)N[C@@H](CCC(N)=O)C(=O)N[C@H](C(=O)N[C@@H](CCC(=O)O)C(=O)N[C@@H](Cc1ccc(O)cc1)C(=O)N[C@@H](Cc1ccc(O)cc1)C(=O)N[C@@H](Cc1ccccc1)C(=O)NCC(=O)N[C@@H](CC(=O)O)C(=O)N[C@@H](Cc1ccccc1)C(N)=O)[C@@H](C)CC [reference compound] (H-AALEAKICHQIEYYFGDF-NH2) | 1 | – |
| Cu complex of ATCUN peptide GGHYrFK, C-terminal amidated; targets stem-loop IIb of HCV IRES RNA [Cu-GGHYrFK-amide] | – | > 172 |
| Cu-GGHGKYKETDLLILFKDDYFAKKNEERK | >55 | – |
| Cu-GGHKYKETDLLILFKDDYFAKKNEERKYGRKKRRQRRR | >60 | – |
| Cu-GGHGYrFK | >72 | – |
| N=C(N)NCCC[C@@H](NC(=O)[C@@H](N)Cc1ccc(O)cc1)C(=O)N[C@@H](Cc1ccccc1)C(=O)N[C@@H](CCCCN)C(N)=O [YrFK, reference compound] | 1 | – |
| Cu-GGHGAALEAKICHQIEYYFGDF | 8.4 | – |

Read-outs that look alike come from different tables or passages of the source. Where a SMILES comes first, the peptide text is derived from it.
